Drawing on patent US20210324003A1, this text covers EC50 for one substance.

The assay addresses MT145K gp120 monomer. Description: ELISA. Also on record: unit not given beside the values. The following applies: Fc fusion. Background: An ELISA detects its analyte on a solid surface through an enzyme-linked reagent.

Turning to “Human CD4-IgG2 immunoadhesin (from UniProt P01730 26-204)”, the EC50 is 6.500 ?.
